Here are results for 19 molecules from patent US20260069689A1, “ANTI-SARS-COV-2-SPIKE GLYCOPROTEIN ANTIBODIES AND ANTIGEN-BINDING FRAGMENTS” (Regeneron, published 2026).

The target in test [1] is T1, SARS-CoV2 Spike ecto foldon Trimer expressed with a C-terminal myc-myc-hexahistidine (SARS-CoV-2, UniProt P0DTC2 14-1213).
T1 construct: extracellular domain
Nature of the test: SPR Biacore, mAb captured by anti-hFc, 25C.

Test [2] concerns the target T1, SARS-CoV2 Spike ecto foldon Trimer …. Nature of the test: SPR Biacore, mAb captured by anti-hFc, 37C.

B1: mAb15159 (antibody, V domains shown)
VH: EVQLVESGGGLVQPGGSLRLSCAASGITVSSNYMTWVRQAPGKGLEWVSLIYSGGSTFYADSVRGRFTISRDNSKNTLYLQMNSLRAEDTAVYYCARDLVVYGMDVWGQGTTVTVSS
VL: DIQLTQSPSSLSASVGDRVTITCRASQGISSYLAWYQQKPGKAPKLLIYAASTLQSGVPSRFSGSGSGTDFTLTISSLQPEDFATYYCQHLNSDPHTFGQGTKLEIKR
Turning to B1, the “Spike trimer.their bound at 50 nM” value in test [1] came to 147 RU; in test [2] it was 196 RU.

B2: mAb15170 (antibody, V domains shown)
VH: EVQLVESGGGLVQPGGSLRLSCAATGITVSSNYMSWVRQAPGKGLEWVSLIYSGGSTFYADSVKGRFTISRHNSKNTLYLQMSSLRAEDTAVYYCARDLVDFGMDVWGQGTTVTVSS
VL: DIQLTQSPSSLSASVGDRVTITCRASQGISNYLAWYQQKPGKAPKLLIYAASTLQSGVPSRFSGSGSGTDFTLTISSLQPEDFGTYYCQQLNSDSPTFGQGTKVEIKR
Turning to B2, the “Spike trimer.their bound at 50 nM” value worked out at 48.4 RU in test [1] and 221 RU in test [2].

B3: mAb14312 (antibody, V domains shown)
VH: EVQLVESGGGLVQPGGSLRLSCAASGFTVSRSYMTWVRQAPGKGLEWVSVIFTGGRTDHADSVKGRFTISRHNSKNTLYLQMNSLRTEDTAVYYCARVAIVGATGAFDIWGQGTMVTVSS
VL: QSVLTQPPSVSGAPGQRVTISCTGSSSNIGAGDDVHWYQQLPGTAPKLLIYGNSNRPSGVPDRFSGSKSGTSASLAITGLQAEDEADYYCQSYDSSLSGSVVFGGGTKLTVLG
In the case of B3, the “Spike trimer.their bound at 50 nM” value stood at 393 RU in test [1] and 500 RU in test [2].

B4: mAb15150 (antibody, V domains shown)
VH: EVQLVETGGGLIQPGGSLRLSCAAPGFIVSSNYMSWVRQAPGKGLEWVSLLYPGGSTYYADSVKGRFTISRDNSKNTLYLQMNSLRADDTAVYYCARVLPIVEDHFDYWGQGTLVTVSS
VL: DIQLTQSPSFLSASVGDRVTITCRASQGMSSYLAWYQKKPGKAPKLLIYGATILQSGVPSRFSGSGSGTEFTLTISSLQPEDFATYYCQQLNSDPLYMYTFGQGTKLEIKR
On to B4, for which the figures for the “Spike trimer.their bound at 50 nM” value in test [1] and in test [2] were 87.6 RU and 247 RU, respectively.

B5: mAb15157 (antibody, V domains shown)
VH: EVQLVESGGALVQPGGSLRLSCAASGFPFTIYAMTWVRQAPGKGLEWVSVITGSGDSTYYADSVKGRFTISRDNSKNTLYLQMNSLRAEDTAVYYCVKTGEGFFYYYYGMDVWGQGTTVTVSS
VL: QSVLTQPPSVSAAPGQKVTISCSGSSSNIGNSYISWYQQLPGTAPKLLIYVNNKRPSGIPDRFSGSKSGTSATLGITGLQTGDEADYYCGTWDSSLSAGVFGSGTKVTVLG
Consider B5, for which the “Spike trimer.their bound at 50 nM” value is 42.5 RU in test [1] and 298 RU in test [2].

B6: mAb15158 (antibody, V domains shown)
VH: EVQLVESGGGLVQPGGSLRLSCAASGFSFSSNWMSWVRQAPGKGLEWVGNINQDGSEKYYVDSVEGRFTISRDNAKKSLYLQMNSLRAEDTAVYYCARDLGVLWFGDFVDWGQGALVTVSS
VL: DIQMTQSPSSLSASVGDRVTITCRASQAISNSLAWYQQKPGKAPKLLLYAASTLESGVPSRFSGSGSGTDYTLTISSLQPEDFATYYCLQYYGSPRTFGQGTKVEIKR
For B6, the “Spike trimer.their bound at 50 nM” value in test [1] amounted to 55.1 RU; in test [2] it was 224 RU.

B7: mAb14232 (antibody, V domains shown)
VH: QITLKESGPTLVKPTQTLTLTCTFSGFSLSASGVGVGWIRQPPGKALEWLALIYWDDDKRYSPSLKSRLTITKDTSKNQVVLTMTNMDPVDTATYYCAQHKVATIFDYWGQGTLVTVSS
VL: QSALTQPPSASGSPGQSVTISCTATSSDVGNYNYVSWYQQHPGKAPKLMIYEVTKRPSGVPDRFSGSKSGNTASLTVSGLQAEDEADYYCSSYAGSWGVFGGGTKLTVLG
For B7, the “Spike trimer.their bound at 50 nM” value in test [1] was 72.8 RU; in test [2] it was 120 RU.

B8: mAb14284 (antibody, V domains shown)
VH: QITLKESGPTLVKPTQTLTLTCTFSGFSFSTSGVGVGWIRQPPGKTLEWLALIYWDDDKRYSPSLKSRLTITKDTSKNQVVLTMTNMDPVDTATYFCAHHGIPTIFGYWGQGALVTVSS
VL: QSALTQPASVSGSPGQSITISCTGTSSDLGVFNYVSWYQQHPGKAPKLMIYEVTNRPSGVSNRFSGSKSGNTASLTISGLQAEDEADYYCSSYTTSSTVFGGGTKLTVLG
As to B8, the results for the “Spike trimer.their bound at 50 nM” value in test [1] and in test [2] were 469 RU and 631 RU, respectively.

B9: mAb15156 (antibody, V domains shown)
VH: QLQLQESGPGLVKSSETLSLTCTVSASITGSTYYWGWIRQPPGKGLEWIGSIYYSGTTYYKASLKSRVTISVDTSKNQFSLKLTSVTVADTAVYYCVSHLLGNYHKYGMDVWGQGTTVTVSS
VL: QSVLTQPPSASGTPGQRVTISCSGSRSNIGINTVNWYQQFPGTALNLLIFSDNQRPSGVPDRFSGSKSGTSASLAISGLQSEDEADYYCAAWDDSLNGPDWVFGGGTKLTVLG
Regarding B9, the “Spike trimer.their bound at 50 nM” value came to 205 RU in test [1] and 474 RU in test [2].

B10: mAb15151 (antibody, V domains shown)
VH: QVQLVESGGGVVQPGRSLRLSCAASGFVFNSYGMHWVRQAPGKGLEWVAVLWYEGSKNYYADSVKGRFTISRDNSKNTLYLQMNSLRAEDTAVYYCARHGSGSFFGYYLDYWGQGTLVTVSS
VL: DIQMTQSPSSLSASVGDRVTITCRASHNINDFLNWYQQKPGKAPRLLIYAASSLQSGVPSRFSGSGSGTDFTLTISSLQPEDFATYYCQESYTTPPTFGQGTKLEIKR
For B10, the “Spike trimer.their bound at 50 nM” value in test [1] was determined as 145 RU; in test [2] it was 373 RU.

B11: mAb14260 (antibody, V domains shown)
VH: EVQLVESGGGLVQPGGSLRLSCAASGFTFSIYEMNWVRQAPGKGLEWVSYITSSGFTIYYADSVKGRFTISRDNAKNSLYLQMHSLRAEDTAVYYCATSSSSGYYFDYWGQGTLVTVSS
VL: not shown
In the case of B11, the results for the “Spike trimer.their bound at 50 nM” value in test [1] and in test [2] were 378 RU and 495 RU, respectively.

B12: mAb15162 (antibody, V domains shown)
VH: EVQLVETGGGLIQPGGSLRLSCAASEFIVSRNYMSWVRQAPGKGLEWVSLIYSGGSTYYADSVKGRFTISRDNSKNILYLQMNSLRAEDTAVYYCARDRGGISDYWGQGTLVTVSS
VL: DIQMTQSPSSLSASVGDRVTITCQASQDINKYLNWFQQKPGKAPKLLIYDASNLETGVPSRFSGSGSGTDFTFTISSLQPEDIATYYCQQYDNLPRTFGQGTKLEIKR
As for B12, the “Spike trimer.their bound at 50 nM” value in test [1] came to 115 RU; in test [2] it was 206 RU.

B13: mAb15164 (antibody, V domains shown)
VH: EVQLVESGGGLVQPGGSLRLSCAASGFAVSSNYMTWVRQAPGKGLEWVATIYSGDSTYYADSVKGRFTISRHNSKNTLSLQMNSLRADDTAIYYCARLSGVLSGTYNGAFDIWGQGTMVTVSS
VL: QSALTQPASVSGSPGQSITISCTGTSSDFGNYNIVSWYQQHPGQAPKVMIYEGNKRPSGVSNRFSGSKSGHTASLTISGLQAEDEADYYCSSYAGSSTWVFGGGTKLTVLG
Regarding B13, the “Spike trimer.their bound at 50 nM” value in test [1] stood at 107 RU; in test [2] it was 379 RU.

B14: mAb15166 (antibody, V domains shown)
VH: EVQLVESGGGLVQPGGSLRLSCAASGFTVTSNYMSWVRQAPGKGLEWVSAIYSGESTYYADSVKGRFTISRDSSKNTLYLQMNSLRVEDTAVYYCASIHDYSNYVGGFDPWGQGTLVTVSS
VL: QSALTQPASVSGSPGQSITISCTGPSSDFGSYNLVSWYQQHPGKAPKLMIYEGTKRPSGVSNRFSGSKSGNTASLTISGLQAEDEADYYCSSYAGSSTWVFGGGTKLTVLG
With B14, the “Spike trimer.their bound at 50 nM” value in test [1] is 87 RU; in test [2], 283 RU.

B15: mAb15165 (antibody, V domains shown)
VH: EVQLVESGGGLVQPGGSLRLSCAASGFTVSSNYMSWVRQAPGKGLEWVSAIYSGDSTYYADSVKGRFTISKDNSKNTLYLQMNSLRGEDTAVYYCARLGGALQAYDGAFDYWGQGTLATVSS
VL: QSALTQPASVSGSPGQSITISCTGTSSDFGSYNLVSWYQQHPGKAPKLMIYEGNKRPSGVSIRFSGSKSGNTASLTISGLQAEDEADYYCSSYAGSSTWVFGGGTKLTVLG
With B15, the figures for the “Spike trimer.their bound at 50 nM” value in test [1] and in test [2] were 104 RU and 319 RU, respectively.

B16: mAb15161 (antibody, V domains shown)
VH: EVQLVESGGGLVQPGGSLRLSCAASGFTFSSYEMNWVRQAPGKGLEWVSYISSSGSILYYADSVKGRFTASRDNAKNSLYLQMNSLRAEDTGVYYCARREYQLLRPFEFWGQGTLVTVSS
VL: not shown
B16: the “Spike trimer.their bound at 50 nM” value amounted to 127 RU in test [1] and 282 RU in test [2].

B17: mAb14292 (antibody, V domains shown)
VH: EVQLVESGGGLVQPGGSLRLSCVASGFAFSTYEMNWVRQAPGKGLEWVSYISSSGSTIYYADSVKGRLTISRDNVKNSLYLQMNSLRVEDTAIYYCARDAIRNNDILTDPATFDPWGQGTLVTVSS
VL: not shown
B17: the results for the “Spike trimer.their bound at 50 nM” value in test [1] and in test [2] were 138 RU and 237 RU, respectively.

B18: mAb15160 (antibody, V domains shown)
VH: EVQLVESGGGLVQPGGSLRLSCSASGFTFSRYAMYWVRQAPGKGLEYVSAISSDGGSTYDADSVKGRFTISRANSKNTLYLQMSSLRAEDTAVYYCVKGLRELLYYYYGMDVWGQGTTVTVSS
VL: DIQMTQSPSSLSASVGDRVTITCRAGQSISSFLNWYQQKPGKAPKLLIYAASSLQSGVPSRFSGSGSGTDFTLTISSLQPEDFATYYCQQSYITPFTFGPGTKVDIKR
On to B18, for which the “Spike trimer.their bound at 50 nM” value in test [1] amounted to 55.8 RU; in test [2], 302 RU.

B19: mAb15163 (antibody, V domains shown)
VH: EVQLVETGGGLIQPGESLRLSCAASGFIVSTNYMNWVRQAPGKGLEWVSVIYRGGSTYYADSVKGRFTISRDNSKNTLFLQMNSLRAEDTAVYYCARGHEDFDYDTPASGAFDIWGQGTMVTVSS
VL: QSALTQPPSASGSPGQSVTISCTGTSSDVGGHNYVSWYQQHPGKAPKVMIYEVSKRPSGVPDRFSGSKSGNTASLTVSGLQAEDEADYYCSSYAGSNKFVFGTGTKVTVLG
In the case of B19, the “Spike trimer.their bound at 50 nM” value in test [1] was found to be 97.6 RU; in test [2], 324 RU.
